Here are results for two molecules from patent US20220257540A1, “COMPOSITIONS AND METHODS FOR TREATMENT OF HEPATITIS B VIRUS INFECTION” (ANHUI RONGHANG BIOTECH DEVELOPMENT CO., LTD., priority 2019, published 2022).

In the data set the test system is PXB-cells. Kind of data set: hAlb and total DNA of HBV-infected PXB-cells. The data set is classed as cell-based. Conditions: Day 27.

Where only a bound is given, the exact number is not on record here.

Regarding `COc1cc2c(c(OC)c1OC)-c1ccc(OC)c(=O)cc1[C@@H](NC(C)=O)CC2` [Colchicine, N [5,6,7,9-tetrahydro-1,2,3,10-tetratmethoxy 9-oxobenzo[a]heptalen-7-yl], (S)-acetamide], the “Extracellular hAlb” value is, setting by setting: (Colchicine 1 nM) 85.3 µg/mL; (Colchicine 2 nM) 89.3 µg/mL; (Colchicine 3.9 nM) 85.7 µg/mL; (Colchicine 7.8 nM) 84.6 µg/mL; (Colchicine 15.6 nM) 71.2 µg/mL; (Colchicine 31.3 nM) 20.7 µg/mL. Moreover, the “Extracellular hAlb” value was <5.0 µg/mL (Colchicine 62.5 nM); <5.0 µg/mL (Colchicine 125 nM); <5.0 µg/mL (Colchicine 250 nM); <5.0 µg/mL (Colchicine 500 nM); <5.0 µg/mL (Colchicine 1000 nM).
Regarding `C=C1[C@H](CO)[C@@H](O)C[C@@H]1n1cnc2c(=O)[nH]c(N)nc21` [Entecavir], the “Extracellular hAlb” value (Entecavir 9.8 pM) came out at 90.9 µg/mL; the “Extracellular hAlb” value (Entecavir 19.5 pM) is 91.2 µg/mL; the “Extracellular hAlb” value (Entecavir 39.1 pM) came out at 92.8 µg/mL; the “Extracellular hAlb” value (Entecavir 78.1 pM) was determined as 92.1 µg/mL; the “Extracellular hAlb” value (Entecavir 156.3 pM) came out at 92.2 µg/mL; the “Extracellular hAlb” value (Entecavir 312.5 pM) was 94.6 µg/mL. Further, the “Extracellular hAlb” value runs as follows: (Entecavir 625 pM) 95.2 µg/mL; (Entecavir 1.25 nM) 92.0 µg/mL; (Entecavir 5 nM) 93.7 µg/mL; (Entecavir 10 nM) 86.2 µg/mL.
